Measurements as given in US20250154231A1 (RQBIO COVID, published 2025).

Legend:
Omicron BA.2.12.1 RBD [1] = biological target: T1, Omicron BA.2.12.1 RBD (SARS-CoV-2, UniProt P0DTC2 333-528); assay: SPR; BA.2.12.1 by 1:1 equilibrium analysis
T1 construct: domain: RBD

Omicron BA.2.12.1 RBD [2] = biological target: T1, Omicron BA.2.12.1 RBD; assay: SPR

Row | Binder | fold weaker binding against BA.2 RBD (Omicron BA.2.12.1 RBD [1]) | fold weaker binding against BA.2 RBD (Omicron BA.2.12.1 RBD [2])
1 | Omi06 (antibody, V domains shown) VH: EVQLLESGPGLVKPSETLSLTCTVSGGSISRYSWSWIRQPAGRGLEWIGRMYSSGGTNYNPSLESRVTMSLDTSKKQFSLKLSSVTAADTAVYYCAAASIDQVWGTYRDAFDIWGQGTMVTVSS VL: AIRMTQSPSSLAASVGDRVTISCRAGQSISSFLHWYQQKVGKAPKLLIYDASSLQSGVPSRFSGSGSGTDFTLTISSLQPEDFAAYYCQQSYENPLTFGGGTKVDIK | 15 fold | 
2 | Omi31 (antibody, V domains shown) VH: EVQLVQSGAEVKKPGSSVKVSCKASGGTFSSYGISWVRQAPGLGLEWMGGVIPILSAKHYAQRFQGRVTITADKSTGTAYMELSSLRSEDTAVYYCARDILHHDDLWGRFYYDGMDVWGQGTTVTVSS VL: QSVVTQPPSASGTPGQRVTISCSGSSSDIGSNTVNWYQQLPGTAPKLLIYTNNQRPSGVPDRFSGSKSGTSASLAITGLQSEDEADYFCAAWDESLNGRVFGGGTKLTVL |  | ~1300 fold
